According to paper PMC8765781, “A platform of assays for the discovery of anti-Zika small-molecules with activity in a 3D-bioprinted outer-blood-retina model” (PLoS ONE, 2022):

Assays:
HepG2 cells = assay: HepG2 cell viability (cytotoxicity) counterscreen, CellTiter-Glo; settings: read-out: Cell toxicity counterscreen HepG2, CC50; 48 hr, no virus; unit inferred
Vero cells = settings: read-out: Cell toxicity counterscreen Vero, CC50; 48 hr, no virus; unit inferred

CC1=CC2OC3CC(O)[C@](C)([C@@]2(C)C(O)C1=O)[C@]31CO1 (some centres unmarked)
CC50 (HepG2 cells): > 30 µM
CC50 (Vero cells): > 50 µM
